Measurements: patent publication US20230391845A1, “GLP-1, GIP AND GLUCAGON RECEPTOR TRIPLE AGONISTS” (priority 2020, published 2023)
*1 amine or outer side, *2 acyl side, *3 side chain or, on linkers, in order; H or OH if unused. Where a SMILES comes first, the peptide text is derived from it. Side-chain parts run from the residue outwards. [ ]: non-standard residue; d: D form. The star is where a group is joined. C20 diacid = O=C(O)CCCCCCCCCCCCCCCCCCC(=O)*; γGlu = O=C(O)[C@H](CCC(=O)[*:2])N[*:1]; εLys = N[C@@H](CCCCN[*:1])C(=O)[*:2]; Aib = CC(C)(N)C(=O)O

Experiment: Maximal efficacy study in DIO mice, daily s.c. dose titration for up to 60 days (body weight, food intake)
Assay type: in vivo, C57BL/6J male mice
Conditions: last day any mouse of the group received treatment before being removed from the study (body weight 22.5 g or less)
Experimental: The purpose of this example is to assess the in vivo effect of selected triple agonists on pharmacodynamic parameters in diet-induced obese (DIO) mice. The animals were treated once daily via subcutaneous injection with a liquid formulation of the triple agonist to be tested to assess effects on body weight, foot intake, and glucose tolerance.
C57BL/6J male mice were purchased from Jackson Laboratories at approximately 8 weeks of age. Mice were group housed and fed a high-fat, high-sugar diet from Research Diets (D12331). Mice were maintained on this diet for 12 weeks prior to initializing the pharmacology studies. Mice exceeding a measured body weight of 50 grams were considered diet-induced obese (DIO) and included in pharmacology studies. Mice were exposed to a controlled 12 h:12 h light:dark cycle at ambient room temperature (22° C.) with ab libitum access to food and water. Studies were approved by and performed according to the guidelines of the Institutional Animal Care and Use Committee of the University of Cincinnati.
All compounds in the study were formulated in the following buffer: 50 mM phosphate; 70 mM sodium chloride; 0.05% Tween-80, pH 7.4. […]
Body weight (BW) and food intake were measured immediately prior to dosing each day. The percent change in body was calculated individually for each mouse based on initial body weight prior to the first injection. […]

Row | Compound | Last day of treatment
1 | CC[C@H](C)[C@H](NC(=O)[C@H](CO)NC(=O)[C@H](Cc1ccc(O)cc1)NC(=O)[C@H](CC(=O)O)NC(=O)[C@H](CO)NC(=O)[C@@H](NC(=O)[C@H](Cc1ccccc1)NC(=O)[C@@H](NC(=O)CNC(=O)[C@H](Cc1c[nH]cn1)NC(=O)C(C)(C)NC(=O)[C@@H](N)Cc1c[nH]cn1)[C@@H](C)O)[C@@H](C)O)C(=O)N[C@@H](Cc1ccc(O)cc1)C(=O)N[C@@H](CC(C)C)C(=O)N[C@@H](CCC(=O)O)C(=O)N[C@@H](CCCCNC(=O)[C@@H](N)CCCCNC(=O)[C@@H](N)CCCCNC(=O)CC[C@H](NC(=O)CCCCCCCCCCCCCCCCCCC(=O)O)C(=O)O)C(=O)N[C@@H](CCCCN)C(=O)N[C@@H](Cc1ccc(O)cc1)C(=O)N[C@@H](C)C(=O)NC(C)(C)C(=O)N[C@@H](CCC(=O)O)C(=O)N[C@@H](Cc1ccccc1)C(=O)N[C@H](C(=O)N[C@@H](CCC(N)=O)C(=O)N[C@@H](Cc1c[nH]c2ccccc12)C(=O)N[C@@H](CC(C)C)C(=O)N[C@@H](CC(C)C)C(=O)N[C@@H](CCC(=O)O)C(=O)NCC(=O)NCC(=O)N1CCC[C@H]1C(=O)N[C@@H](CO)C(=O)N[C@@H](CO)C(=O)NCC(=O)N[C@@H](C)C(=O)N1CCC[C@H]1C(=O)N1CCC[C@H]1C(=O)N1CCC[C@H]1C(=O)N[C@@H](CO)C(N)=O)C(C)C [Compound No. 30] (H-H[Aib]HGTFTSDYSIYLEK([εLys-εLys-γGlu-C20 diacid])KYA[Aib]EFVQWLLEGGPSSGAPPPS-NH2; N-terminus assumed) | 37
2 | CC[C@H](C)[C@H](NC(=O)[C@H](CO)NC(=O)[C@H](Cc1ccc(O)cc1)NC(=O)[C@H](CC(=O)O)NC(=O)[C@H](CO)NC(=O)[C@@H](NC(=O)[C@H](Cc1ccccc1)NC(=O)[C@@H](NC(=O)CNC(=O)[C@H](Cc1c[nH]cn1)NC(=O)C(C)(C)NC(=O)[C@@H](N)Cc1c[nH]cn1)[C@@H](C)O)[C@@H](C)O)C(=O)N[C@@H](Cc1ccc(O)cc1)C(=O)N[C@@H](CC(C)C)C(=O)N[C@@H](CCC(=O)O)C(=O)N[C@@H](CCCCNC(=O)[C@@H](N)CCCCNC(=O)[C@@H](N)CCCCNC(=O)CC[C@H](NC(=O)CCCCCCCCCCCCCCCCCCC(=O)O)C(=O)O)C(=O)N[C@@H](CCCCN)C(=O)N[C@@H](C)C(=O)N[C@@H](C)C(=O)NC(C)(C)C(=O)N[C@@H](CCC(=O)O)C(=O)N[C@@H](Cc1ccccc1)C(=O)N[C@H](C(=O)N[C@@H](CCC(N)=O)C(=O)N[C@@H](Cc1c[nH]c2ccccc12)C(=O)N[C@@H](CC(C)C)C(=O)N[C@@H](CC(C)C)C(=O)N[C@@H](CCC(=O)O)C(=O)NCC(=O)NCC(=O)N1CCC[C@H]1C(=O)N[C@@H](CO)C(=O)N[C@@H](CO)C(=O)NCC(=O)N[C@@H](C)C(=O)N1CCC[C@H]1C(=O)N1CCC[C@H]1C(=O)N1CCC[C@H]1C(=O)N[C@@H](CO)C(N)=O)C(C)C [Compound No. 33] (H-H[Aib]HGTFTSDYSIYLEK([εLys-εLys-γGlu-C20 diacid])KAA[Aib]EFVQWLLEGGPSSGAPPPS-NH2) | 43
